The subject of the data set is hPBV RdRP ΔLOOP (human picobirnavirus strain Hy005102). Put plainly: EMSA. The conditions noted are these: 50 mM Tris-HCl pH 7.5, 50 mM KCl, 1 mM NaN3, 5 mM beta-mercaptoethanol, 10% glycerol; 1 nM 32P-RNA, 30 min at room temperature; 15% native PAGE in ice bath; recombinant protein; label: 32P (5' end, T4 PNK). (In general: In EMSA bound probe runs differently from free probe, usually more slowly.)

The exact form of at least one protein or probe is not confirmed. At least one verdict rests on a figure or table, not on a statement of the authors.

Turning to GUAAAAUUUUCGAAUUUUAU [PBV 5'-(+)UTR], the binding result is “binds”.

Source of the values: article PMC4831847.
